Results of unrelated studies side by side (data: NIAID ChemDB).

Common to all: host cell toxicity; cell line: CEM; endpoint: CC50

CCn: concentration that lowers growth or viability of the cells by n%.

CC(C)OC(=O)c1cc(NC(=S)OCC2CC2)ccc1Cl ; result: 21.05 µM
C/C(=N\NC(=O)CN1c2c(-c3ccccc3)n[nH]c2-c2ccccc2S1(=O)=O)c1sccc1Br ; method: MTS ; result: 19.6 µM
CC(C)OC(=O)c1cc(NC(=S)OC(C)C)ccc1Cl ; result: 38 µM
CC(C)CCC[C@@H](C)[C@H]1CC[C@H]2[C@@H]3CC[C@H]4C[C@@H](CCC=C(c5cc(Br)c(O)c(C(=O)O)c5)c5cc(Br)c(O)c(C(=O)O)c5)CC[C@]4(C)[C@H]3CC[C@]12C ; result: >280 µM
CO/N=C/c1cc(NC(=S)OC(C)C)ccc1Cl ; result: 348.7 µM
COc1cc(OC[C@H]2CC[C@@H](COCc3ccccc3)O2)ncn1 ; result: 50 µM
O=c1oc2cc(Cc3ccccc3)ccc2n1CCN1CCOCC1 ; result: 14 µg/mL
COc1ccc2c(c1)C(=O)C(C1=C(O)c3ccccc3C(=O)C1=O)=C(Cl)C2=O ; method: MTT ; result: 10 µM
O=C(NCCO)c1ccccc1SSc1ccccc1C(=O)NCCO ; result: 16 µM
CC[C@H](C)[C@H](NC(=O)c1ccccc1SSc1ccccc1C(=O)N[C@H](C(=O)O)[C@@H](C)CC)C(=O)O ; result: 140 µM
O=C1NC(=O)C(CSC(=O)c2ccccc2)(CSC(=O)c2ccccc2)N1 ; result: >31 µM
O=C(O)c1ccccc1SSc1ccccc1C(=O)O ; result: >100 µM
O=C(c1cccc([N+](=O)[O-])c1)c1ccc2c(c1)sc(=O)n2Cc1ccccc1 ; result: 4.5 µg/mL
Cc1cc(Cl)cc2c1S(=O)(=O)N=C(C(=O)c1ccc3ccccc3c1)S2 ; method: XTT ; result: 49.2 µM
O=C1C(=O)c2ccccc2C(O)=C1C1=C(Cl)C(=O)c2ccccc2C1=O ; method: MTT ; result: 5.3 µM
CCCCCCCCCCCCCCCCC(c1ccc(O)c(C(=O)O)c1)c1ccc(O)c(C(=O)O)c1 ; result: 51.4 µM
COc1cc(/C=N/N=C(\N)NO)ccc1O.Cc1ccc(S(=O)(=O)O)cc1 ; result: 132 µg/mL
O=C(Nc1ccc([N+](=O)[O-])cc1)c1ccccc1SSc1ccccc1C(=O)Nc1ccc([N+](=O)[O-])cc1 ; result: 14 µM
Nc1nc(=O)n([C@H]2CC[C@@H](CO)O2)cc1F ; result: 2 µM
CC(C)NS(=O)(=O)c1ccc(NC(=O)c2ccccc2SSc2ccccc2C(=O)Nc2ccc(S(=O)(=O)NC(C)C)cc2)cc1 ; result: 38 µM
Cc1cccc(C(=O)c2ccc3c(c2)sc(=O)n3C)c1 ; result: <0.32 µg/mL
O=C(CN1c2c(-c3ccccc3)n[nH]c2-c2ccccc2S1(=O)=O)N/N=C/c1cccc(Cl)c1 ; result: 3.7 µM
CCCOC(=S)Nc1ccc(Cl)c(C(=O)OC(C)C)c1 ; result: 22.16 µM
CCCCCC=C(c1cc(Br)cc(C(=O)O)c1OC)c1cc(Br)cc(C(=O)O)c1OC ; result: 175 µM
NC(CSCc1ccccc1)(CSCc1ccccc1)C(=O)O ; result: >100 µM
NC1=C(C2=C(N)C(=O)c3ccccc3C2=O)C(=O)c2ccccc2C1=O ; method: MTT ; result: 7.9 µM
Nc1nccc(OC[C@H]2CC[C@@H](CO)O2)n1 ; result: >250 µM
O=C(CN1c2c(-c3ccccc3)n[nH]c2-c2ccccc2S1(=O)=O)N/N=C/c1ccc(Br)cc1 ; result: 12.6 µM
Nc1ccn([C@H]2CC[C@@H](CO)O2)c(=O)n1 ; result: 28 µM
C#CCOc1cc(NC(=S)OC(C)C)ccc1Cl ; result: 16.21 µM
Nc1ccnc(OC[C@H]2CC[C@@H](CO)O2)n1 ; result: >250 µM
NNC(=O)c1ccccc1SSc1ccccc1C(=O)NN ; result: 16 µM
C/C(=N\NC(=O)CN1c2c(-c3ccccc3)n[nH]c2-c2ccccc2S1(=O)=O)c1cccs1 ; method: MTS ; result: 23.3 µM
COc1cccc2c1C(=O)C(C1=C(Cl)C(=O)c3ccccc3C1=O)=C(Cl)C2=O ; method: MTT ; result: 11 µM
Cn1c(=O)sc2cc(C(=O)c3ccccc3)ccc21 ; result: 4.9 µg/mL
C/C(=N\NC(=O)CN1c2c(-c3ccccc3)n[nH]c2-c2ccccc2S1(=O)=O)c1ccc([N+](=O)[O-])s1 ; method: MTS ; result: 5 µM
Nc1cc(OC[C@H]2CC[C@@H](COCc3ccccc3)O2)ncn1 ; result: 129 µM
CCc1c(Sc2ccccc2)n(COCc2ccccc2)c(=O)[nH]c1=O ; result: 19.9 µM
CC(=O)c1ccc(NC(=O)c2ccccc2SSc2ccccc2C(=O)Nc2ccc(C(C)=O)cc2)cc1 ; result: 54 µM
COC1=C(C2=C(I)C(=O)c3ccccc3C2=O)C(=O)c2ccc3c(c2C1=O)C=CC(C)(C)O3 ; method: MTT ; result: 6.3 µM
OC1COC(O)C(O)C1O.OCC1OC(O)C(O)C(O)C1O.OCC1OC(O)C(O)C(O)C1O.OCC1OC(O)C(O)C(O)C1O ; result: >100 µg/mL
COc1ccc(/C=N/N=C(\N)NO)c(Cl)c1O.Cc1ccc(S(=O)(=O)O)cc1 ; result: 19 µg/mL
Nc1nc(OC[C@H]2CC[C@@H](COCc3ccccc3)O2)cc(OC[C@@H]2CC[C@H](COCc3ccccc3)O2)n1 ; result: 28 µM
CC(C)OC(=S)Nc1ccc(Cl)c(C(=O)OCC(F)(F)F)c1 ; result: 157 µM
CCOCn1c(Sc2ccccc2)c(C(C)C)c(=O)[nH]c1=S ; result: >100 µM
NC(N)=NC(=O)c1ccc(N2CCCCCC2)nc1 ; method: fluorescence ; result: 162 µM
CCN(CC)c1ccc(/C=N/NC(=O)CN2c3c(-c4ccccc4)n[nH]c3-c3ccccc3S2(=O)=O)cc1 ; result: 12.5 µM
COP(=O)(OC)OP(=O)(OC)OP(=O)(OC)OC[C@H]1O[C@@H](n2ccc3c(N)ncnc32)[C@](C)(F)[C@@H]1O ; result: >10 µM
CCc1c(Sc2cc(C)cc(C)c2)n(COCc2ccccc2)c(=S)[nH]c1=O ; result: ≥100 µM
Nc1nc(Cl)cc(OC[C@H]2O[C@H](COCc3ccccc3)[C@@H](OCc3ccccc3)[C@H]2OCc2ccccc2)n1 ; result: >250 µM
O=C1NC(=O)C(CSCc2cccnc2)(CSCc2cccnc2)N1 ; result: >100 µM
CC(C)(C)c1ccc(NC(=O)c2ccccc2SSc2ccccc2C(=O)Nc2ccc(C(C)(C)C)cc2)cc1 ; result: 75 µM
Cc1cn(C2CC(CO)(CO)C2)c(=O)[nH]c1=O ; result: >30 µg/mL
CCCCCOC(=S)Nc1ccc(Cl)c(C(=O)OC(C)C)c1 ; result: 63.98 µM
Cc1cc(C)cc(Sc2c(C(C)C)c(=O)[nH]c(=S)n2COCCO)c1 ; result: 66.8 µM
O=C(O)c1cc(C(=CCCBr)c2cc(Cl)c(O)c(C(=O)O)c2)cc(Cl)c1O ; result: 181 µM
COc1ccc(/C=N/NC(=O)CN2c3c(-c4ccccc4)n[nH]c3-c3ccccc3S2(=O)=O)c(OC)c1 ; result: 17.5 µM
CCCCC(=O)c1ccc2c(c1)sc(=O)n2CCN1CCCCC1 ; result: 10 µg/mL
Nc1ccn([C@H]2CC[C@@H](CO)O2)c(=O)n1 ; result: 120 µM
COc1cc(/C=N/N=C(\N)NO)c([N+](=O)[O-])cc1OC ; result: 18 µg/mL
CC(=O)OCCOC(=O)c1cc(NC(=S)OC(C)C)ccc1Cl ; result: 47.24 µM
COC(=O)c1cc(C(=CCCBr)c2cc(Cl)c(OC)c(C(=O)OC)c2)cc(Cl)c1OC ; result: 15.2 µM
COc1ccc(C(=O)C2=NS(=O)(=O)c3cc(C)c(Cl)cc3S2)cc1 ; method: XTT ; result: >1000 µM
O=C1NC(=O)C(CSCc2ccc(Br)cc2)(CSCc2ccc(Br)cc2)N1 ; result: >16 µM
CC(C)O/N=C/c1cc(NC(=S)OC(C)C)ccc1Cl ; result: >303 µM
O=C(CCC(CCC(=O)N[C@H](Cc1c[nH]c2ccccc12)C(=O)O)(CCC(=O)N[C@H](Cc1c[nH]c2ccccc12)C(=O)O)NC(=O)c1cc(C(=O)NC(CCC(=O)N[C@H](Cc2c[nH]c3ccccc23)C(=O)O)(CCC(=O)N[C@H](Cc2c[nH]c3ccccc23)C(=O)O)CCC(=O)N[C@H](Cc2c[nH]c3ccccc23)C(=O)O)cc(C(=O)NC(CCC(=O)N[C@H](Cc2c[nH]c3ccccc23)C(=O)O)(CCC(=O)N[C@H](Cc2c[nH]c3ccccc23)C(=O)O)CCC(=O)N[C@H](Cc2c[nH]c3ccccc23)C(=O)O)c1)N[C@H](Cc1c[nH]c2ccccc12)C(=O)O ; method: visual reading ; result: 56 µM
CC(C)OC(=S)Nc1ccc(Cl)c(C(=O)O)c1 ; result: >365.3 µM
O=C(NC1CC1)c1ccccc1SSc1ccccc1C(=O)NC1CC1 ; result: 90 µM
O=C1C(=O)c2ccccc2C(O)=C1C1=C(I)C(=O)c2ccccc2C1=O ; method: MTT ; result: 5 µM
Cc1cc2c(cc1Cl)SC(C(=O)c1ccc3ccccc3c1)=NS2(=O)=O ; method: XTT ; result: >200 µM
NNC(=O)CN1c2c(-c3ccccc3)n[nH]c2-c2ccccc2S1(=O)=O ; result: 15.1 µM
COc1c(Cl)cc(C(=Cc2c(F)c(F)c(F)c(F)c2F)c2cc(Cl)c(OC)c(C(=O)O)c2)cc1C(=O)O ; result: 412 µM
Nc1ccn(C2CC(CO)(CO)C2)c(=O)n1 ; result: 10 µg/mL
Cc1c(N)nc(N)nc1OCCOCP(=O)(O)O ; result: 33 µM
CC[C@H](C)OC(=S)Nc1ccc(Cl)c(C(=O)OC(C)C)c1 ; result: 29.71 µM
COC1=C(C2=C(Cl)C(=O)c3ccccc3C2=O)C(=O)c2ccccc2C1=O ; method: MTT ; result: 2.8 µM
CCCCOC(=O)c1cc(NC(=S)OC(C)C)ccc1Cl ; result: 37.99 µM
COP(=O)(OC)OP(=O)(OC)OP(=O)(OC)OC[C@H]1O[C@@H](n2ccc3c(N)nc(N)nc32)[C@](C)(F)[C@@H]1O ; result: >10 µM
COc1ccc(N2CCN(NC(=O)c3ccc(C(F)(F)F)nc3Nc3cc(Cl)ccc3C)CC2)cc1 ; method: MTT ; result: >50 µM
C/C=C/COc1cc(NC(=S)OC(C)C)ccc1Cl ; result: 19.7 µM

Neighbouring rows are from separate reports.